Protein sequences, listed by entry. Tags and fused reporters are not part of them. Residues count along the entry.
UniProt Q7ZJM1, 1-288: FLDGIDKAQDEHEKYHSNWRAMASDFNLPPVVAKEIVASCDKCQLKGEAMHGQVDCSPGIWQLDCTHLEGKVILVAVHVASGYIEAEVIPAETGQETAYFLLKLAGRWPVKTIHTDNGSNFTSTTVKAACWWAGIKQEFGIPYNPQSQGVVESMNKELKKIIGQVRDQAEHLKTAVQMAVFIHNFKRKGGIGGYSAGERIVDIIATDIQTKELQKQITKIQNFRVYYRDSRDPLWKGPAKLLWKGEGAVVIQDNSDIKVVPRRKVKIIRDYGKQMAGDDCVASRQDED

The assay deals with Human immunodeficiency virus type 1 integrase (Human immunodeficiency virus 1, UniProt Q7ZJM1). Description: Inhibition of Human immunodeficiency virus 1 integrase 3'-processing activity expressed in Escherichia coli using 21-mer DNA and Mg2+ after 2 hrs by polyacrylamide gel electrophoresis.
In the case of `Cc1cn([C@H]2C[C@H](OP(C)(=O)OC[C@H]3O[C@@H](n4cc(C)c(=O)[nH]c4=O)C[C@@H]3OP(C)(=O)OC[C@H]3O[C@@H](n4cc(C)c(=O)[nH]c4=O)C[C@@H]3OP(=O)(O)OC[C@H]3O[C@@H](n4cc(C)c(=O)[nH]c4=O)C[C@@H]3OP(=O)(O)OC[C@H]3O[C@@H](n4cnc5c(=O)[nH]c(N)nc54)C[C@@H]3OP(=O)(O)OC[C@H]3O[C@@H](n4cc(C)c(=O)[nH]c4=O)C[C@@H]3OP(=O)(O)OC[C@H]3O[C@@H](n4cnc5c(=O)[nH]c(N)nc54)C[C@@H]3OP(=O)(O)OC[C@H]3O[C@@H](n4cc(C)c(=O)[nH]c4=O)C[C@@H]3OP(=O)(O)OCCCCCCNC(=S)Nc3ccc(-c4c5cc(Br)c(=O)c(Br)c-5oc5c(Br)c(O)c(Br)cc45)c(C(=O)O)c3)[C@@H](COP(C)(=O)O[C@H]3C[C@H](n4cc(C)c(=O)[nH]c4=O)O[C@@H]3COP(=O)(O)O[C@H]3C[C@H](n4cnc5c(=O)[nH]c(N)nc54)O[C@@H]3COP(=O)(O)O[C@H]3C[C@H](n4cnc5c(=O)[nH]c(N)nc54)O[C@@H]3CO)O2)c(=O)[nH]c1=O` (stereo partly drawn), the half-inhibitory concentration (IC50) (usually the concentration needed to halve the response being measured) was 110 nM.

`Cc1cn([C@H]2C[C@H](OP(C)(=O)OC[C@H]3O[C@@H](n4cc(C)c(=O)[nH]c4=O)C[C@@H]3OP(=O)(O)OC[C@H]3O[C@@H](n4cc(C)c(=O)[nH]c4=O)C[C@@H]3OP(=O)(O)OC[C@H]3O[C@@H](n4cnc5c(=O)[nH]c(N)nc54)C[C@@H]3OP(=O)(O)OC[C@H]3O[C@@H](n4cc(C)c(=O)[nH]c4=O)C[C@@H]3OP(C)(=O)OC[C@H]3O[C@@H](n4cnc5c(=O)[nH]c(N)nc54)C[C@@H]3OP(=O)(O)OC[C@H]3O[C@@H](n4cc(C)c(=O)[nH]c4=O)C[C@@H]3OP(=O)(O)OCCCCCCNC(=S)Nc3ccc(-c4c5cc(Br)c(=O)c(Br)c-5oc5c(Br)c(O)c(Br)cc45)c(C(=O)O)c3)[C@@H](COP(=O)(O)O[C@H]3C[C@H](n4cc(C)c(=O)[nH]c4=O)O[C@@H]3COP(C)(=O)O[C@H]3C[C@H](n4cc(C)c(=O)[nH]c4=O)O[C@@H]3COP(=O)(O)O[C@H]3C[C@H](n4cnc5c(=O)[nH]c(N)nc54)O[C@@H]3COP(=O)(O)O[C@H]3C[C@H](n4cnc5c(=O)[nH]c(N)nc54)O[C@@H]3CO)O2)c(=O)[nH]c1=O` (stereo partly drawn) came in with an IC50 of 100 nM.

In turn, `Cc1cn([C@H]2C[C@H](OP(C)(=O)OC[C@H]3O[C@@H](n4cnc5c(=O)[nH]c(N)nc54)C[C@@H]3OP(=O)(O)OC[C@H]3O[C@@H](n4cc(C)c(=O)[nH]c4=O)C[C@@H]3OP(C)(=O)OC[C@H]3O[C@@H](n4cnc5c(=O)[nH]c(N)nc54)C[C@@H]3OP(=O)(O)OC[C@H]3O[C@@H](n4cc(C)c(=O)[nH]c4=O)C[C@@H]3OP(C)(=O)OCCCCCCNC(=S)Nc3ccc(-c4c5cc(Br)c(=O)c(Br)c-5oc5c(Br)c(O)c(Br)cc45)c(C(=O)O)c3)[C@@H](COP(=O)(O)O[C@H]3C[C@H](n4cc(C)c(=O)[nH]c4=O)O[C@@H]3COP(=O)(O)O[C@H]3C[C@H](n4cc(C)c(=O)[nH]c4=O)O[C@@H]3COP(=O)(O)O[C@H]3C[C@H](n4cc(C)c(=O)[nH]c4=O)O[C@@H]3COP(=O)(O)O[C@H]3C[C@H](n4cc(C)c(=O)[nH]c4=O)O[C@@H]3COP(=O)(O)O[C@H]3C[C@H](n4cnc5c(=O)[nH]c(N)nc54)O[C@@H]3COP(=O)(O)O[C@H]3C[C@H](n4cnc5c(=O)[nH]c(N)nc54)O[C@@H]3CO)O2)c(=O)[nH]c1=O` (stereo partly drawn) yielded a half-inhibitory concentration (IC50) of 100 nM.

The record behind these values is ChEMBL document CHEMBL2010748, “Structure-Activity Relationship Studies of HIV-1 Integrase Oligonucleotide Inhibitors” (ACS Med Chem Lett, 2011).
